Results of unrelated studies side by side (data: NIAID ChemDB).

All rows: growth or infection tests; agent: HIV-1; read by: luciferase; read-out: EC50

Two numbers with a dash give a range or band. Conditions beyond the fields shown may differ between rows. ECn: concentration that inhibits the pathogen or its effect by n%. An empty or dashed field is not shown.

structure | changes | setting | strain or isolate | cells | result
c1ccc2c(NC3CCNCC3)nc(NCc3ccc(CNCCCN4CCCCC4)cc3)nc2c1 |  |  | IIIB | TZM-bl | 0.0715 µM
COc1cnc(-n2cnc(C)n2)c2c1c(C(=O)C(=O)N1CCN(C(=O)c3ccccc3)CC1)cn2COP(=O)(O)O | M426L |  | NL4-3 | U-87 | 0.0442 µM
CC(C)(C)C1=NC(c2ccccc2)(C(F)(F)F)NC(=O)N1 | L100I |  | NL4-3 | TZM-bl | 43.1 µM
CC(C)CCCC(C)CCN1CCn2cc(C(=O)NCc3ccc(F)cc3F)c(=O)c(O)c2C1=O | G118R |  |  | HEK 293 | 0.1027 µM
CC1=C[C@@H]2C=C(C)[C@H]3CC=C[C@@]3(O)[C@]23C(=O)N[C@@H](CC(C)C)[C@@H]3[C@@H]1C |  | pseudotyped |  | SupT1 | 25 µM
c1ccc2c(NC3CCNCC3)nc(NCc3ccc(CNCCCNC4CC4)cc3)nc2c1 |  |  | IIIB | TZM-bl | 0.1612 µM
O=C(NCc1ccc(F)cc1F)c1cn2c(c(O)c1=O)C(=O)N(CCCCCCO)CC2 | G118R |  |  | HEK 293 | 0.0677 µM
O=C(C(=O)N1CCN(C(=O)c2ccc(Cl)o2)CC1)c1c[nH]c2c(F)ccc(F)c12 |  |  |  | HeLa + HELA CD4+/CCR5 | <10 µM
COc1ccc(N2CCN(NC(=O)c3ccc(C(F)(F)F)nc3Nc3cc(Cl)ccc3C)CC2)cc1 |  |  | IIIB | TZM-bl | >10 µM
CN(C(=O)[C@H](Cc1cc(F)cc(F)c1)NC(=O)NS(=O)(=O)N[C@@H](Cc1cc(F)cc(F)c1)C(=O)N(C)c1ccc2snnc2c1)c1ccc2snnc2c1 |  |  | NL4-3 | MT-2 | 0.27 µM
C#C[C@@]1(COP(=O)(O)OP(=O)(O)OP(=O)(O)O)C=C[C@H](n2cc(C)c(=O)[nH]c2=O)O1 | T165A |  | NL4-3 | TZM-bl | 0.8 µM
COc1cc(OC)c2ccc(-c3cccc([N+](=O)[O-])c3)nc2c1 |  |  | NL4-3-Luc | MT-2 | 16.74 µM
O=C(C(=O)N1CCN(C(=O)c2ccn[nH]2)CC1)c1c[nH]c2cccc(F)c12 |  |  |  | HeLa + HELA CD4+/CCR5 | <10 µM
Cc1cc2nc3cn2c(c1[C@H](OC(C)(C)C)C(=O)O)N1CCC(C)(CC1)OC/C=C/C[C@@H](C)Oc1cc(F)cc(F)c1-c1cccc-3c1 |  |  |  | MT-2 | 0.002 µM
Cc1ccc2c(c1)[C@@H](N1CCCC1=O)C[C@@H](c1cccc(N)c1)N2 |  |  | NL4-3-Luc | MT-2 | 74.64 µM
c1ccc2c(NC3CCNCC3)nc(NCc3ccc(CNCCCNC4CCCCCC4)cc3)nc2c1 |  |  | IIIB | TZM-bl | 0.0587 µM
O=C(Cn1ccc(=O)[nH]c1=O)Nc1ccc([N+](=O)[O-])cn1 |  |  | VB59 | TZM-bl | 2.68 µM
CN(C(=O)[C@H](Cc1cc(F)cc(F)c1)NC(=O)Cn1c(=O)n(CC(=O)N[C@@H](Cc2cc(F)cc(F)c2)C(=O)N(C)c2ccc3scnc3c2)c2ccccc21)c1ccc2scnc2c1 |  |  | NL4-3 | MT-2 | 0.01 µM
CCCCC/C=C/C=C1/C(=O)CCC1C/C=C\CCCC(=O)O |  |  |  | U-937 | 3.1 µM
COc1ccc2c(c1)[C@@H](N1CCCC1=O)C[C@@H](c1cccc([N+](=O)[O-])c1)N2 |  |  | NL4-3-Luc | MT-2 | >136 µM
O=C(NCc1ccc(F)cc1F)c1c(O)c2cccnc2n(O)c1=O | G118R | pseudotyped |  | HOS | 107.4 µM
O=C(NCc1ccc(F)cc1F)c1cn2c(c(O)c1=O)C(=O)N(CCCCCO)CC2 | G118R |  |  | HEK 293 | 0.2427 µM
Cc1nc(Cl)c([C@H](OC(C)(C)C)C(=O)O)c(N2CCC(C)(C)CC2)c1-c1ccc2c(c1)CCN(c1ncnc3c1oc1ncccc13)C2 |  |  | NL4-3 | MT-2 | 0.0006 µM
O=C(NCc1ccc(OC(F)(F)F)cc1)C1CCN(CCC(c2ccccc2)c2ccccc2)CC1 |  |  |  | MAGI-CCR5 | 0.425 µM
O=C(NCc1ccc(F)cc1F)c1cn2c(c(O)c1=O)C(=O)NCC2 | G118R |  |  | HEK 293 | 0.2758 µM
CC1OC(=O)c2ccccc2C1(Cl)c1ccccc1 |  |  | IIIB | TZM-bl | 29.33 µM
C=CCN(C(=O)[C@H](Cc1cc(F)cc(F)c1)NC(=O)NS(=O)(=O)N[C@@H](Cc1cc(F)cc(F)c1)C(=O)N(CC=C)c1ccc2scnc2c1)c1ccc2scnc2c1 |  |  | NL4-3 | MT-2 | 0.1 µM
Cc1cc(/C=C/C#N)cc(C)c1Oc1cc(Nc2ccc(C#N)cc2)c(N)cc1S(N)(=O)=O |  |  | NL4-3 | TZM-bl | 0.0937 µM
O=C(CCC(=O)n1cnc2c([N+](=O)[O-])cccc21)n1cnc2c([N+](=O)[O-])cccc21 |  |  | IIIB | TZM-bl | 17.1 µM
c1ccc2c(NC3CCNCC3)nc(NCc3ccc(CNCCCN4CCNCC4)cc3)nc2c1 |  |  | IIIB | TZM-bl | >0.5 µM
O=C(NCc1ccc(F)cc1F)c1cn2c(c(O)c1=O)C(=O)N(CCCCO)CC2 | G118R |  |  | HEK 293 | 0.9638 µM
NC(=O)CCNC[C@H](Cc1ccc(O)cc1)NC[C@H](Cc1ccc(O)cc1)NC[C@@H](N)Cc1ccc(O)cc1 |  |  |  | HeLa | 30 µM
Cc1c(-c2c(C)c3c(c(C)c2[C@H](OC(C)(C)C)C(=O)O)CN(C(=O)N2CCOC[C@@H]2C)C3)cc(F)c2c1CCCO2 |  |  | IIIB | MT-4 | 0.036 µM
CN(C(=O)[C@H](Cc1cc(F)cc(F)c1)NC(=O)NS(=O)(=O)N(C)c1ccccc1)c1ccc2scnc2c1 |  |  | NL4-3 | MT-2 | 0.06 µM
C[C@]1(CO)O[C@@H](n2cnc3c(N)ncnc32)C[C@@H]1O | M184V (delta)Env |  |  | HOS | >10 µM
O=C1CC(C(=O)N(CCCN2CCC(Cc3ccccc3)CC2)c2ccccc2)CN1Cc1ccccc1 |  |  | JR-FL R5 | MOLT-4-CCR5+ + MOLT-4 | 0.49 µM
COc1ccc(N(C)C(=O)[C@H](Cc2cc(F)cc(F)c2)NC(=O)Cn2c(=O)n(CC(=O)N[C@@H](Cc3cc(F)cc(F)c3)C(=O)N(C)c3ccc(OC)cc3)c3c(Cl)cccc32)cc1 |  |  | NL4-3 | MT-2 | 0.03 µM
C/C=C/C(=O)O[C@H]1CC[C@]23C[C@]24CC[C@]25CO[C@@]6(C(C)(C)O)CC[C@](C)(O6)C2[C@@H](OC(C)=O)[C@@H](OC(C)=O)[C@@]5(C)C4CC[C@H]3C1(C)C |  |  | NL4-3 | MT-4 | <5 µM
COc1ccc(N(C)C(=O)[C@H](Cc2cc(F)cc(F)c2)NC(=O)NS(=O)(=O)N2C=CC[C@@H]2C(=O)N(C)C)cc1 |  |  | NL4-3 | MT-2 | 0.97 µM
C[C@@H]1CN(C(=O)c2ccccn2)CCN1C(=O)C(=O)c1c[nH]c2cccc(F)c12 |  |  |  | HeLa + HELA CD4+/CCR5 | <10 µM
Nc1c(C(=O)NCc2ccc(F)cc2F)c(=O)n(O)c2ncc(CCCCCCO)cc12 | P142S | pseudotyped |  | 293T | 0.0012 µM
Cc1cn([C@H]2C[C@H](N=[N+]=[N-])[C@@H](CO)O2)c(=O)[nH]c1=O |  |  | NL4-3 | TZM-bl | 0.009434 µM
COc1ccnc2[nH]cc(C(=O)C(=O)N3CCN(C(=O)c4ccccc4)C[C@H]3C)c12 |  |  | ADA | Cf2Th-CD4+ CCR5+ | 0.008 µM
Cc1c(-c2c(C)c3c(c(C)c2C(OC(C)(C)C)C(=O)O)CN(C(=O)c2cccc(F)c2)C3)ccc2c1NCCO2 |  |  | IIIB | MT-4 | 0.036 µM
Cc1cc2nc3cn2c(c1[C@H](OC(C)(C)C)C(=O)O)N1CCC(C)(CC1)OCCCC[C@@H](C)Oc1cc(F)cc(F)c1-c1cccc-3c1 |  |  |  | MT-2 | 0.004 µM
O=C(Cn1ccc(=O)[nH]c1=O)Nc1ccc(Br)cn1 |  |  | VB59 | TZM-bl | 134 µM
CCNC(=O)NC(=O)C(C)OC(=O)c1c2c(nc3ccccc13)/C(=C\c1cccc(OC)c1OC)CC2 |  | pseudotyped |  | CEM | 2 µM
CCN(CC)Cc1cnc2c(C(=O)Nc3ccc4[nH]ncc4c3)cnn2c1 |  |  | NL4-3 | TZM-bl | 17.2 µM
COC(=O)c1cccc2[nH]cc(C(=O)C(=O)N3CCN(C(=O)c4ccccc4)CC3CO)c12 |  |  |  | HeLa + HELA CD4+/CCR5 | <10 µM
Nc1cccc([C@@H]2C[C@H](N3CCCC3=O)c3ccccc3N2)c1 |  |  | NL4-3-Luc | MT-2 | >163 µM
O=C(CCC(=O)Nc1ccc(Br)cn1)Nc1ccc(Br)cn1 |  |  | ADA5 | TZM-bl | 63.08 µM
CN(C(=O)[C@H](Cc1ccccc1)NC(=O)c1ccc(F)c(C(=O)N[C@@H](Cc2ccccc2)C(=O)N(C)c2ccc3scnc3c2)c1)c1ccc2scnc2c1 |  |  | NL4-3 | MT-2 | 0.06 µM
CNC(=O)c1cc2ncn(-c3ccc(C#N)cc3)c2cc1Oc1c(C)cc(CCC#N)cc1C |  |  | NL4-3 | TZM-bl | >220 µM
Cc1cc(/C=C/C#N)cc(C)c1Oc1ccc(N)c(Nc2ccc(C#N)cc2)n1 |  |  | NL4-3 | TZM-bl | 0.00071 µM
COc1ccc2nc(-c3cccc([N+](=O)[O-])c3)ccc2c1 |  |  | NL4-3-Luc | MT-2 | 8.97 µM
O=C(NCc1ccc(F)cc1F)c1cn2ccn(CCCCO)c(=O)c2c(O)c1=O | G118R |  |  | HEK 293 | 0.0754 µM
CC(C)CNC(=O)NC(=O)C(C)OC(=O)c1c2c(nc3ccccc13)/C(=C\c1cccc([N+](=O)[O-])c1)CCC2 |  | pseudotyped |  | CEM | >10 µM
C=CCN(C(=O)[C@H](Cc1cc(F)cc(F)c1)NS(=O)(=O)CCCS(=O)(=O)N[C@@H](Cc1cc(F)cc(F)c1)C(=O)N(CC=C)c1ccc(OC)cc1)c1ccc(OC)cc1 |  |  | NL4-3 | MT-2 | 2.64 µM
O=C(CCC(=O)n1cnc2ccccc21)n1cnc2ccccc21 |  |  | VB59 | TZM-bl | 25.15 µM
C=CCN(C(=O)[C@H](Cc1cc(F)cc(F)c1)NC(=O)c1cccc(S(=O)(=O)N[C@@H](Cc2cc(F)cc(F)c2)C(=O)N(CC=C)c2ccc(OC)cc2)c1)c1ccc(OC)cc1 |  |  | NL4-3 | MT-2 | 0.77 µM
Nc1cccc(C(=O)N2CCN(C(=O)C(=O)c3c[nH]c4cccc(F)c34)CC2)c1 |  |  |  | HeLa + HELA CD4+/CCR5 | <10 µM
N#Cc1ccc(Nc2ccnc(C(=O)c3ccc(C#N)cc3)n2)cc1 |  |  | IIIB | MT-4 | 43 µM
O=C(C(=O)N1CCN(C(=O)c2ccc(O)cc2)CC1)c1c[nH]c2cccc(F)c12 |  |  |  | HeLa + HELA CD4+/CCR5 | <10 µM
CC1(C)C[C@@H](O)C[C@]2(C)C1CC[C@@]13C[C@@](O)(CCC12)[C@](C)(O)C3 |  |  |  | 293T | 9.1 µM
COc1ccc(-n2ccnc2[C@H](Cc2ccccc2)NC(=O)NS(=O)(=O)N[C@@H](Cc2ccccc2)c2nccn2-c2ccc(OC)cc2)cc1 |  |  | NL4-3 | MT-2 | 3.68 µM
Cc1cc(-c2ccncc2)cc(C)c1Oc1nc(Nc2ccc(C#N)cc2)nc2c(Cl)cn(C)c12 |  | pseudotyped |  | HeLa | 0.001–0.01 µM
CCNc1cc(N2CCc3cc(-c4c(C)nc(C)c([C@H](OC(C)(C)C)C(=O)O)c4N4CCC(C)(C)CC4)ccc3C2)ncn1 |  |  | NL4-3 | MT-2 | 0.005 µM
Cc1cc(C)c2c(c1)N[C@H](c1cccc([N+](=O)[O-])c1)C[C@@H]2N1CCCC1=O |  |  | NL4-3-Luc | MT-2 | 53.77 µM
Cc1nc(CN2CCC3(CCC3)CC2)c(-c2ccc3c(c2)CCN(c2nccc(-c4cccnc4)n2)C3)c(N2CCC(C)(C)CC2)c1[C@H](OC(C)(C)C)C(=O)O |  |  | NL4-3 | MT-2 | 0.01 µM
COc1ccc2c(c1)[C@@H](N1CCCC1=O)C[C@@H](c1cccc(N)c1)N2 |  |  | NL4-3-Luc | MT-2 | 31.3 µM
CN(C(=O)[C@H](Cc1cc(F)cc(F)c1)NC(=O)NS(=O)(=O)N1CCc2cccnc21)c1ccc(OC(F)(F)F)nc1 |  |  | NL4-3 | MT-2 | 0.06 µM
Cc1nc(Cl)c([C@H](OC(C)(C)C)C(=O)O)c(N2CCC(C)(C)CC2)c1-c1ccc2c(c1)CCN(c1nccc(N3CCC(C(C)(C)O)CC3)n1)C2 |  |  | NL4-3 | MT-2 | 0.008 µM

10 of the rows above, restated:

structure	changes	setting	strain or isolate	cells	result
COc1cc(OC)c2ccc(-c3cccc([N+](=O)[O-])c3)nc2c1			NL4-3-Luc	MT-2	16.74 µM
Cc1cc(-c2ccncc2)cc(C)c1Oc1nc(Nc2ccc(C#N)cc2)nc2c(Cl)cn(C)c12		pseudotyped		HeLa	0.001–0.01 µM
COC(=O)c1cccc2[nH]cc(C(=O)C(=O)N3CCN(C(=O)c4ccccc4)CC3CO)c12				HeLa + HELA CD4+/CCR5	<10 µM
O=C(C(=O)N1CCN(C(=O)c2ccc(Cl)o2)CC1)c1c[nH]c2c(F)ccc(F)c12				HeLa + HELA CD4+/CCR5	<10 µM
O=C(CCC(=O)n1cnc2c([N+](=O)[O-])cccc21)n1cnc2c([N+](=O)[O-])cccc21			IIIB	TZM-bl	17.1 µM
Cc1ccc2c(c1)[C@@H](N1CCCC1=O)C[C@@H](c1cccc(N)c1)N2			NL4-3-Luc	MT-2	74.64 µM
O=C(CCC(=O)Nc1ccc(Br)cn1)Nc1ccc(Br)cn1			ADA5	TZM-bl	63.08 µM
Cc1cc(/C=C/C#N)cc(C)c1Oc1ccc(N)c(Nc2ccc(C#N)cc2)n1			NL4-3	TZM-bl	0.00071 µM
c1ccc2c(NC3CCNCC3)nc(NCc3ccc(CNCCCN4CCCCC4)cc3)nc2c1			IIIB	TZM-bl	0.0715 µM
COc1ccc2c(c1)[C@@H](N1CCCC1=O)C[C@@H](c1cccc([N+](=O)[O-])c1)N2			NL4-3-Luc	MT-2	>136 µM